According to US7097987 (Novartis, dated 2006):

Target: T1, recombinant HCV E2 envelope protein produced in CHO cells (E2-CHO) (hepatitis C virus, UniProt P26664 384-715, limits assumed)
T1 construct: also called CHO-E2; recombinant E2
Assay: western blot with E2

B1: protein containing the mouse EC2 loop of CD81 (other)
chain: FVNKDQIAKDVKQFYDQALQQAVMDDDANNAKAVVKTFHETLNCCGSNALTTLTTTILRNTLCPSGGNILTPLLQQDCHQKIDELFSGK
notes: not shown: fusion partner or tag of the mouse EC2 construct is not described
binding result: no binding
